Measured data: PubChem BioAssay AID504761 (Drosophila RNAi Screening Center, 2011)

Assay: 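Fly genes whose silencing reduces dengue virus type 2 infection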 (primary screen)
Cells: D.Mel-2 cells from Drosophila
Knock-down reagent: long dsRNA against Drosophila genes
Challenge: infection with dengue virus type 2; dose and infection time not stated
Measured: 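Per well on two replicate plates, imaging gave the percent of cells positive for viral envelope protein, ranked by infection, and a nuclear count of cells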
Scale: infection score: higher = more virus-infected cells
Hit rule: 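Low infection ranks in the two replicates (chance level up to 0.065) followed by a retest with a 1.5-fold or larger significant decrease, p below 0.05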
Calls: active = confirmed: knock-down lowers infection; inactive = not picked or not confirmed
The screen tested about 22,000 reagents; shown is a random part of those that have a named target and a result. Of all reagents, 116 (0.52%) got an active call. 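Calls depend on retest data that are not deposited; infection was ranked per plate without normalising between plates; the unit of the infection score is not given.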 Unmarked entries are inactive. The numbers tell different reagents against one gene apart. Further read-outs or replicates are left out here. The record does not give: the amount of reagent, the time to read-out.

The first 2 entries as a preview:
"infection score, replicate 1","infection score, replicate 2",target,reagent
6.47,3.09,CG12609,1
16.3,8.67,CG12177,1

The list itself, from the first entry:
"infection score, replicate 1","infection score, replicate 2",target,reagent
6.47,3.09,CG12609,1
16.3,8.67,CG12177,1
2.07,3.59,CG12177,2
,18.5,CG12177,3
2.85,27.9,Cpr47Ee,1
0.58,7.72,BomBc1,1
0.19,0.05,BomBc1,2
1.19,0.83,nab,1
3.38,2.24,nab,2
16.6,8.23,dpr13,1
27.6,9.37,dpr13,2
0.61,1.55,dpr13,3
2.46,1.19,Polr2J,1
34.1,24.6,Polr2J,2
3.33,12,CG13295,1
15.1,7.47,CG30458,1
6.87,4.67,CG11085,1
1.36,0.58,CG11085,2
2.33,2.01,CG11085,3
7.71,19.1,CG7458,1
3.8,15.9,CG7458,2
0.84,4.12,AhcyL1,1
11.7,14.5,AhcyL1,2
